Measured values from several laboratories, pooled; numbers as filed in NIAID ChemDB.

Shared fields: cytotoxicity tests; cell line: DAUDI; endpoint: CC50

CCn: concentration that lowers growth or viability of the cells by n%. Lines come from different laboratories, so protocols vary.

SMILES | result
COC(=O)[C@H](C)NP(=O)(OC[C@H]1C/C1=C\n1cnc2c(=O)[nH]c(N)nc21)Oc1ccccc1 | >105 µM
Nc1nc(N)c2ncn(/C=C3/C[C@@H]3CO)c2n1 | 38 µM
COC(=O)[C@H](C)NP(=O)(OCC1C/C1=C/n1cnc2c(N)ncnc21)Oc1ccccc1 | >108 µM
Nc1ncnc2c1ncn2[C@@H]1C[C@@H](O)[C@H](CO)O1 | 23.1 µM
COC(=O)C(C)NP(=O)(OC[C@H]1C/C1=C/n1cnc2c(N)nc(N)nc21)Oc1ccccc1 | 0.85 µM
Nc1ccn([C@@H]2C[C@@H](O)[C@H](CO)O2)c(=O)n1 | >50 µM
COc1nc(N)nc2c1ncn2/C=C1/C[C@H]1CO | >202 µM
Nc1ccn([C@@H]2C[C@@H](O)[C@H](CO)O2)c(=O)n1 | >50 µM
Nc1nc(Cl)nc2c1ncn2/C=C1/CC1CO | >50 µM
COc1nc(N)nc2c1ncn2/C=C1/C[C@@H]1CO | 40 µM
Cc1cn([C@@H]2C[C@@H](O)[C@H](CO)O2)c(=O)[nH]c1=O | >50 µM
COc1nc(N)nc2c1ncn2C=C1CC1CO | >202 µM
Nc1nc(N)c2ncn(/C=C3/C[C@H]3CO)c2n1 | >215 µM
COC(=O)C(C)NOP(OC[C@H]1C/C1=C/n1cnc2c(N)[nH]c(=O)nc21)Oc1ccccc1 | >102 µM
COC(=O)[C@H](C)NP(=O)(OC[C@H]1C/C1=C\n1cnc2c(N)nc(N)nc21)Oc1ccccc1 | >106 µM